{
  "source": "paper PMC6208348",
  "about": "(2018)",
  "key": {"[1]": {"target": "T1, L. drancourtii LeSH4 SH2 domain (Ser3-Asp170) (Legionella drancourtii)", "T1 chain": "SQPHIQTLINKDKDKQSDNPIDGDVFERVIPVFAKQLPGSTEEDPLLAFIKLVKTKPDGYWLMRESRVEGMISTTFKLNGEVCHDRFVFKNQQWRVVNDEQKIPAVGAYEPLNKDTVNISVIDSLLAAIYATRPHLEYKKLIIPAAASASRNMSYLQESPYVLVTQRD", "assay": "FP"}, "Shc1-pTyr317": {"target": "Shc1-pTyr317", "assay": "FP"}},
  "data": [
    {"binder": "GGTGG", "note": "[pThr-containing version of GGpYGG]", "values": [
      {"measurement": "Kd", "setting": "[1]", "value": "> 50000", "unit": "nM"}
    ]},
    {"binder": "m17 (domain or fragment) SQPHIQTLINKDKDKQSDNPIDGDVFERVIPVFAKQLPGSTEEDPLLAFIKLVKTKPDGYWLMRESRVEGMISTTFKLNGEVCHDRFVFKNQQWRVVNDEQKIPAVGAYEPLNKDTVNISVIDSLLAAIYATRPHLEYKKLIIPAAASASRNMSYLQESPYVLVTQRD", "values": [
      {"measurement": "Kd", "setting": "Shc1-pTyr317", "value": 1580, "unit": "nM"}
    ]},
    {"binder": "YFTYDPYSEEDPD", "note": "[IL2Rβ pTyr387 peptide (fluorescein-labelled)]", "values": [
      {"measurement": "Kd", "setting": "[1]", "value": 2000, "unit": "nM"}
    ]}
  ]
}
